Each number is a percent effect as filed. How 0% and 100% were set is not recorded. Most values in the screen are low, and negative values occur. Many other results are left out here, so strong results are more common than in the screen. A dash means the value is not listed here; it may have been measured.

Mtb glucose medium: 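Phenotypic screen: M. tuberculosis growth, glucose 7H9 medium, 3 days; the read-out is not stated. Compounds at 500 µM. Higher reads as more growth inhibition (inferred: compounds with an IC50 in retests scored well above the rest). Of about 18,000 compounds tested this way, about 1,400 (7.9%) reached 50% or more in at least one test.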
Mtb cholesterol medium: 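Growth of Mycobacterium tuberculosis over 4 days (cholesterol / DPPC medium with tyloxapol); the read-out is not stated. Concentration: 500 µM. Higher reads as more growth inhibition (inferred: compounds with an IC50 in retests scored well above the rest). Size under these conditions: about 18,000 compounds, about 900 of them at 50% or above in at least one test.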

structure,Mtb glucose medium,Mtb cholesterol medium
COc1ccccc1-c1noc(C(C)N)n1 (centres undefined),10.14,3.508
CC1(CO)CCCN1Cc1ccccc1 (centres undefined),6.05,-
COC(CN)C1CCCCC1 (centres undefined),-10.02,-
Cc1nc(C2CCN(CC3CCOC3)CC2)no1 (centres undefined),2.23,-
COCCC1CN(C(=O)c2nc(C)c[nH]2)CCO1 (centres undefined),27.41,5.606
CCN1CCN(CC(C)CNc2ncccc2Cl)CC1 (centres undefined),19.79,-
O[C@@H]1CNC[C@H]1n1ccnn1,90.37,87.43
CC(=O)N(C)C1CCN(Cc2cccc(F)c2)CC1,5.571,-
CCC(CC)C(CN)N1CCCC1 (centres undefined),49.44,38.88
O=C(CN1CCCC1)NCC(=O)Nc1ccc(F)cc1,3.116,-
Cc1nc(C)c(C)c(NCC(O)c2ccccn2)n1 (centres undefined),-6.008,-
O=C(NCCOc1ncccc1Cl)c1cc(Cl)c[nH]1,80.13,88.47
CC(C)N1CCC(CN)C1 (centres undefined),-,-20.07
N#Cc1ccc(-n2ccc(N)n2)c(F)c1,14.45,-
COc1cccc(CC(=O)N2CCC(N)CC2)c1,23.75,-
O=C(Cc1n[nH]c(=O)c2ccccc12)N1CCC1,-7.139,-
OCCCSc1nnc(C2CC2)n1C1CC1,-,1.861
Cc1cnc(CCNC(=O)NCC(O)C2CC2)s1 (centres undefined),-7.39,-
Cc1cc(NC2CC2)n2ncnc2n1,12.29,-
CC(=O)N1CCC(CNC(=O)Nc2ccc(C)s2)CC1,-,-5.72
CN1CCCN(C(=O)NCCCN(C)S(C)(=O)=O)CC1,-4.815,-
CC(=O)N1CCC(C(=O)NCCc2sc(C)nc2C)C1 (centres undefined),-1.083,-
CC(C)(C)OC(=O)N1CCC(CN)C(F)(F)C1 (centres undefined),-6.268,-
CCC(O)CN1CCN(C(=O)c2cccn2C)CC1 (centres undefined),11.05,-
Cn1cnc(S(=O)(=O)NCc2ccccn2)c1Cl,-6.821,-
CN(C(=O)COc1ccccc1C(N)=O)C1CC1,-,12.32
Cc1cc(N2CCC3(CC2)OCCO3)nc(C)n1,-,7.296
CCN(CC1CCCO1)C(=O)CCCc1cn[nH]c1 (centres undefined),9.83,-
O=C(Cn1cnnn1)N(CC1CCOC1)C1CC1 (centres undefined),-,4.104
CC(C)O[C@@H]1CCNC1,-6.578,-
CCOc1cc(NCc2ncc(C)o2)ncn1,59.04,40.46
CC1CN(C(=O)c2ccc(Cl)o2)CC(C)(C)O1 (centres undefined),-,-6.107
CNC(=O)[C@@H](C)Nc1ccc(C(F)(F)F)cn1,64.81,-
c1cc2c(cc1CNC1CC1)OCO2,-,12.62
C[C@@]1(O)CCN(Cc2cncn2C2CCCC2)C[C@@H]1O,-2.864,-
Cc1occc1C(=O)NCC1(N(C)C)CCOCC1,-,-13.85
CNCc1nc(C)no1,3.969,2.332
CS(=O)(=O)CCCNc1ccc2c(c1)C(=O)CCC2,38.96,-
O=C(Cn1ccc(=O)[nH]c1=O)NCc1cccc(Cl)c1,23.26,-
CCNC(=O)Cc1nc(-c2ccncc2)n[nH]1,3.614,-
CN(C)CCCOc1ccc(CN)cc1,23.84,-
NC(=O)CCc1csc(N)n1,-,-7.86
COCCC(=O)NCC(C)c1ccc(F)c(F)c1 (centres undefined),76.31,34.16
O=C1CC(N2CCOCC2)C(=O)N1C1CCCC1 (centres undefined),8.226,-
COc1ccc(S(=O)(=O)N2CC(NCC3CC3)C2)cc1,57.6,-
CNS(=O)(=O)c1cccc(CN)c1,14.89,23.25
CCc1nnc2n1CC(NC(=O)Cc1ccsc1)CC2 (centres undefined),3.249,-
NCc1cccc(-c2ccncc2)c1,33.68,17.53
CCn1c(CN(C)CC(=O)O)nnc1[C@H]1C[C@@H](N)C1,7.247,-
COC(=O)CCN(Cc1nccn1C)CC1CCCO1 (centres undefined),27.78,-
COC(=O)CSc1nc2cc(F)c(F)cc2[nH]1,14.51,3.179
CC(C(=O)N1CCNC(=O)C1)S(C)(=O)=O (centres undefined),-,3.861
O=C(NCc1[nH]ncc1Br)Nc1nc2c(s1)COCC2,69.48,38.44
O=C(c1ccccn1)N1CCC2(CCCC2)CC1,68.87,75.91
COCC1(CNC(=O)CCCn2ccnc2)CCCC1,25.46,-
O=C(NC[C@H]1CCCN1)c1ccc2cccc(Cl)c2n1,32.99,-
CSc1cccc(C#N)n1,8.963,-
CN(C1CCCCC1)S(=O)(=O)N1CCNC(=O)C1,22.27,-
CC(C)(C)NC(=O)N1CCNCC1,5.265,-

Repeated from the top, 8 entries:

{"structure": "COc1ccccc1-c1noc(C(C)N)n1", "stereo": "centres undefined", "Mtb glucose medium": 10.14, "Mtb cholesterol medium": 3.508}
{"structure": "CC1(CO)CCCN1Cc1ccccc1", "stereo": "centres undefined", "Mtb glucose medium": 6.05}
{"structure": "COC(CN)C1CCCCC1", "stereo": "centres undefined", "Mtb glucose medium": -10.02}
{"structure": "Cc1nc(C2CCN(CC3CCOC3)CC2)no1", "stereo": "centres undefined", "Mtb glucose medium": 2.23}
{"structure": "COCCC1CN(C(=O)c2nc(C)c[nH]2)CCO1", "stereo": "centres undefined", "Mtb glucose medium": 27.41, "Mtb cholesterol medium": 5.606}
{"structure": "CCN1CCN(CC(C)CNc2ncccc2Cl)CC1", "stereo": "centres undefined", "Mtb glucose medium": 19.79}
{"structure": "O[C@@H]1CNC[C@H]1n1ccnn1", "Mtb glucose medium": 90.37, "Mtb cholesterol medium": 87.43}
{"structure": "CC(=O)N(C)C1CCN(Cc2cccc(F)c2)CC1", "Mtb glucose medium": 5.571}

From ChEMBL document CHEMBL3988442, “University of Dundee, Small-Polar-MMV Screening Library” (2021).